Source: publication PMC8557913, “Characterization of Phosphopantetheinyl Hydrolase from Mycobacterium tuberculosis” (Microbiology Spectrum, 2021)

Test system: O=[N+]([O-])c1ccc(OP(=O)(O)Oc2ccc([N+](=O)[O-])cc2)cc1
Assay: purified protein
Conditions: pH 7.0; 37.0 °C

Work on “PptH (Rv2795c) (Mycobacterium tuberculosis H37Rv)” yielded a Km of 17.8 ± 2.8 mM.
